A mixed list of measured activities; the numbers were collected in NIAID ChemDB.

Common to all: target-level tests

Percent inhibition refers to the dose given; in toxicity tests it is the harm to the cells.

smiles,species,mutations,protein,read by,endpoint,tested at,result
CCCCCCC[C@H]1O[C@H]1CO,HIV-2,,Protease,HPLC,IC50,,>500 µg/mL
CNc1ccccc1C(=O)O[C@H]1[C@@H](O)[C@H](n2cnc3c(N)ncnc32)O[C@@H]1COP(=O)(O)OP(=O)(O)OP(=O)(O)OP(=O)(O)OC[C@@H]1CC[C@H](n2cnc3c(=O)[nH]c(N)nc32)O1,HIV,RT-M41L T215Y,Reverse transcriptase,nucleotide incorporation / radiometric,fold resistance,,0.238
CN(C)C1COCCn2c1nc(C(=O)NCc1ccc(F)cc1)c(O)c2=O,HIV-1,,Integrase,ELISA,IC50,,<10 µM
Nc1ncnc2c1ccn2[C@H]1C[C@H](F)[C@@H](COP(=O)(O)OP(=O)(O)OP(=O)(O)O)O1,HIV,RT-K65R,Reverse transcriptase,nucleotide incorporation / radiometric,IC50,,0.59 µM
NOCc1c(F)cccc1Cl,HIV-1,,gp120,ELISA,inhibition,20 µg/mL,7%
O=C(/C=C/c1cccn1Cc1ccccc1Cl)CC(=O)C(=O)O,HIV-1,N474A,RNase H,substrate cleavage / fluorescence,inhibition,100 µM,21%
CN1Cn2c(nc(C(=O)NCc3ccc(F)cc3)c(O)c2=O)C1(C)C,HIV-1,,Integrase,ELISA,IC50,,<10 µM
Cc1cc(S(=O)(=O)/[NH+]=C2/N=C3C=C(c4ccccc4)SC3C(=O)N2Cc2ccccc2)c(S)cc1Cl,HIV,,Integrase,strand transfer,IC50,,6 µM
O=C(NCc1ccc(F)cc1)c1nc2n(c(=O)c1O)CCN(Cc1ccccc1)CC2,HIV-1,,Integrase,ELISA,IC50,,<10 µM
CCOC(=O)C(=O)CC(=O)/C=C/c1cccn1Cc1ccc(C)cc1C,HIV-1,Y501A,RNase H,substrate cleavage / fluorescence,inhibition,100 µM,15%
CC1(C)c2nc(C(=O)NCc3ccc(F)cc3)c(O)c(=O)n2CCN1Cc1cn[nH]c1,HIV-1,,Integrase,ELISA,IC50,,<10 µM
Nc1nc2c(ncn2[C@H]2CC[C@@H](COP(=O)(O)OP(=O)(O)NP(=O)(O)OP(=O)(O)OC[C@H]3O[C@@H](n4cnc5c(N)ncnc54)[C@H](O)[C@@H]3O)O2)c(=O)[nH]1,HIV,RT-D67N K70R T215Y K219Q,Reverse transcriptase,nucleotide incorporation / radiometric,fold resistance,,<0.56
Cc1cn([C@H]2CC[C@@H](COP(=O)(O)OP(=O)(O)OP(=O)(O)O)O2)c(=O)[nH]c1=O,HIV,RT-L74V,Reverse transcriptase,,Ki,,0.085 µM
Nc1nc2c(ncn2[C@H]2CO[C@@H](COP(=O)(O)OP(=O)(O)OP(=O)(O)O)O2)c(=O)[nH]1,HIV,RT-L74V K103N,Reverse transcriptase,radiometric,fold resistance,,1.1
Nc1nc2c(ncn2[C@H]2CC[C@@H](COP(=O)(O)OP(=O)(O)OP(=O)(O)O)O2)c(=O)[nH]1,HIV,RT-L74V,Reverse transcriptase,,Ki,,0.12 µM
CCCCCCNC(=O)[C@@H]1O[C@@H]2CN(Cc3ccccc3)C(=O)[C@H]1O2,HIV-1,,Protease,FRET,inhibition,10 µM,0%
CCOC(=O)C(=O)CC(=O)/C=C/c1cc(-c2ccccc2)cn1Cc1ccc(F)cc1,HIV-1,N474A,RNase H,substrate cleavage / fluorescence,IC50,,>100 µM
O=C(NC1CC1)[C@@H]1O[C@@H]2CN(Cc3ccccc3)C(=O)[C@H]1O2,HIV-1,,Protease,FRET,inhibition,10 µM,0%
O=C(NCc1ccc(F)cc1)c1nc2n(c(=O)c1O)CCN(Cc1cn[nH]n1)C2,HIV-1,,Integrase,ELISA,IC50,,<10 µM
O=C(NC1CCCCC1)[C@@H]1O[C@]2(c3ccccc3)CN(C(c3ccccc3)c3ccccc3)C(=O)[C@H]1O2,HIV-1,,Protease,FRET,inhibition,10 µM,0%
CCCCCCC[C@@H]1O[C@@H]1CO,HIV-2,,Protease,HPLC,IC50,,<500 µg/mL
Cc1cc(S(=O)(=O)NC2=NC3C=CSC3C(=O)N2N)c(S)cc1Cl,HIV,,Integrase,strand transfer,IC50,,53 µM
Nc1ncnc2c1ncn2[C@H]1CC[C@@H](COP(=O)(O)OP(=O)(O)OP(=O)(O)OP(=O)(O)OC[C@@H]2CC[C@H](n3cnc4c(N)ncnc43)O2)O1,HIV,RT-M41L T215Y,Reverse transcriptase,nucleotide incorporation / radiometric,IC50,,2.9 µM
CC(C)=CCN1Cc2cccc3[nH]c(=S)n(c23)C[C@@H]1C,HIV,,Reverse transcriptase,nucleotide incorporation,Ki,,0.55 µM
CN(C)C(=O)C(=O)N1CCN2CCn3c(nc(C(=O)NCc4ccc(F)cc4)c(O)c3=O)C1C2,HIV-1,,Integrase,ELISA,IC50,,<10 µM
CC(C)CCNC(=O)[C@@H]1O[C@@H]2CN(Cc3ccccc3)C(=O)[C@H]1O2,HIV-1,,Protease,FRET,inhibition,10 µM,0%
Cc1ccc(CNC(=O)c2nc3n(c(=O)c2O)CCN(C2CC2)CC3N(C)C(=O)C(=O)N(C)C)cc1Cl,HIV-1,,Integrase,ELISA,IC50,,<10 µM
Cc1ccc(Cn2cccc2/C=C/C(=O)CC(=O)C(=O)O)c(C)c1,HIV-1,Y501A,RNase H,substrate cleavage / fluorescence,inhibition,100 µM,0%
CN1CCN(C(=O)C(=O)N(C)C2COCCn3c2nc(C(=O)NCc2ccc(F)cc2)c(O)c3=O)CC1,HIV-1,,Integrase,ELISA,IC50,,<10 µM
Nc1ccn([C@H]2CC[C@@H](COP(=O)(O)OP(=O)(O)OP(=O)(O)OP(=O)(O)OC[C@@H]3CC[C@H](n4ccc(N)nc4=O)O3)O2)c(=O)n1,HIV,RT-W88G,Reverse transcriptase,nucleotide incorporation / radiometric,fold resistance,,4.35

The last 2 rows once more:

smiles,species,mutations,protein,read by,endpoint,tested at,result
CN1CCN(C(=O)C(=O)N(C)C2COCCn3c2nc(C(=O)NCc2ccc(F)cc2)c(O)c3=O)CC1,HIV-1,,Integrase,ELISA,IC50,,<10 µM
Nc1ccn([C@H]2CC[C@@H](COP(=O)(O)OP(=O)(O)OP(=O)(O)OP(=O)(O)OC[C@@H]3CC[C@H](n4ccc(N)nc4=O)O3)O2)c(=O)n1,HIV,RT-W88G,Reverse transcriptase,nucleotide incorporation / radiometric,fold resistance,,4.35

ICn is the concentration giving n% inhibition. An empty or dashed field is not shown. Fold resistance: result on the changed form divided by that on wild type. Neighbouring rows are from separate reports.